Experimental data from paper PMC10628858, “Investigation of new ferrocenyl-artesunate derivatives as antiparasitics” (Dalton Transactions (Cambridge, England : 2003), 2023).

Test system: HEK293 cells
Experiment: MTT cell viability assay, HEK293
Format: cell-based, human
Conditions: selectivity index; for S.I (P. falciparum), HEK293: HEK293 vs P. falciparum NF54; for S.I (T. gondii), HEK293: HEK293 vs T. gondii
Procedure: To assess the cytotoxicity of the four compounds a MTT cell viability assay using human embryonic kidney (HEK293) and human prostatic (PNT1A) cell lines were performed. […] The long chain compounds C1 and C3 were also shown to be non-cytotoxic towards the HEK293 cell line.
The immortalised human prostatic epithelial cell line, PNT1A (Sigma Aldrich, 95012614) was cultured in RPMI-1640 containing 10% foetal calf serum (Life Technologies, South Africa). The human embryonic kidney cell line HEK293 (ATCC) was cultured in DMEM (Life Technologies, South Africa). Both cell lines were cultured at 37 °C under 5% CO2 with 1% penicillin and streptomycin. Cancer cell cytotoxicity was evaluated using the MTT viability assay according to our previous method.[49] Briefly, cells were seeded at a density of 3 × 10^3 cells per well in 96-well plates and allowed to settle overnight. A 100 mM stock of C1/C2 and a 50 mM stock solution of C3/C4 in DMSO was prepared from which dilutions were made. The compound was then added to the cells in triplicate to obtain the indicated concentrations and 0.1% DMSO. Controls included cells treated with […] DMSO alone. After 48 h, 10 μL of 5 mg mL^−1 MTT (3-(4,5-dimethylthiazol-2-yl)-2,5-diphenyltetrazolium bromide) (Sigma-Aldrich) was added, and incubated with the cells for 4 h, followed by addition of 100 μL 10% SLS, 0.01 M HCL. The plates were read at 595 nm on a Multiscan FC plate reader (Thermo Scientific) and the data was fitted to a variable slope dose–response curve using Graphpad prism v6 to obtain the cytotoxicity IC50. The assay was repeated independently three times where inhibition was observed.

Row | SMILES | S.I (P. falciparum), HEK293 | S.I (T. gondii), HEK293
1 | CC1CCC2C(C)C(OC(=O)CCC(=O)OC[c-]3cccc3)OC3OC4(C)CCC1C32OO4.[Fe+2].c1cc[cH-]c1 (stereo not shown) [Compound C2] | 2800 | 190
2 | CC1CCC2C(C)C(OC(=O)CCC(=O)NC[c-]3cccc3)OC3OC4(C)CCC1C32OO4.[Fe+2].c1cc[cH-]c1 (stereo not shown) [Compound C4] | 3000 | 60
